In PMC3866925, “Functional characterization of two members of histidine phosphatase superfamily in Mycobacterium tuberculosis” (BMC Microbiology, 2013):

Columns and labels:
Assay in all cases: purified protein
Settings in all cases: pH 5.8; 37.0 °C
[1] = tested on: O=[N+]([O-])c1ccc(OP(=O)(O)O)cc1
C=C(OP(=O)(O)O)C(=O)O = tested on: C=C(OP(=O)(O)O)C(=O)O
O=P(O)(O)OCC(O)CO = tested on: O=P(O)(O)OCC(O)CO

## C-His-Rv2135c (Mycobacterium tuberculosis H37Rv)
[1]
  Km: 10.60 ± 0.07 mM
  kcat/Km: 6530 M⁻¹ s⁻¹
C=C(OP(=O)(O)O)C(=O)O
  Km: 11.25 ± 0.75 mM
O=P(O)(O)OCC(O)CO
  Km: 14.00 ± 0.00 mM
